Data published in patent US8193160B2 (priority 2006, dated 2012).

Test system: abc3Δ appressoria
Experiment: Restoration of appressorium function (host penetration) on barley-leaf explants, abc3Δ
Settings: 48 hours, papillary callose deposition, DPI 15 mm, antioxidants 5 mM

Point of comparison: `CC(=O)N[C@@H](CS)C(=O)O`, “appressoria with restored host penetration function” value 19±1.6%. Against it:
- c1ccc2c(c1)[I+]c1ccccc1-2 — lower, 5.1±1.1%
- O=C1O[C@H]([C@@H](O)CO)C(O)=C1O — within error, 23±2.5%
